Reference: patent US5159061A (Takeda Chemical Industries, Ltd., priority 1986, dated 1992)

Test: general procedure: solution-phase peptide synthesis; HONB/DCC (ONB active esters)
Conditions: oxidative folding step

PEPTIDE1{[Aib].C.F.G.G.R.I.D.R.I.G.A.Q.S.G.L.G.C.N.S.F.R.Y}$PEPTIDE1,PEPTIDE1,2:R3-18:R3$$$V2.0
oxidative folding yield: 18%

Some peptides are written in HELM: one residue between dots, names in brackets for other building blocks, links after the first $.
